Experimental data taken from article PMC5339220.
Construct, isoform or probe ends are uncertain for at least one entry.

Biological target: CcpA (UniProt A0A0H2ZQ65)
Experiment: EMSA
Settings: EMSA: 1x LightShift binding buffer, 1 ug poly(dI-dC), 2.5% glycerol, 0.05% NP-40, 5 mM Mn2+, 5 mM Zn2+, 2-4 ug protein, 1 ng probe, 20 ul, 37 C, 30 min; pH not stated; recombinant protein; label: 5' biotin (Pcps F strand); probe letters rebuilt from the primers and the genome

TACACATCTGCTTCTAAAATATTGTTAGAAAACGATTTGACTGTCCTGATCAATTTGTCATGTTCTTATTTCATTTTACTATATTTTTGGTTCGCGGGAAGTCTACTAAGATACTTAAAGATGCAGATAGTGAAAAAAGGTGTAGACATTACCGTAAAAAAGTGATATAATCGTAAGATGTTCAATGTATAGGTGTTAATCATGAGTAGACGTTTTAA (double strand) [C2 probe (cps promoter)]
binding result: binds
